Assay results taken from publication PMC4703368, “A Conserved Interaction between a C-Terminal Motif in Norovirus VPg and the HEAT-1 Domain of eIF4G Is Essential for Translation Initiation” (PLoS Pathogens, 2016).
Ends that are not written are not given here. * marks the point of attachment. FITC = O=C1OC2(c3ccc(O)cc3Oc3cc(O)ccc32)c2ccc(NC(=S)*)cc21; Ahx = NCCCCCC(=O)O

T1: MBP tagged eIF4GII HEAT-1 (745–1003) (human, UniProt O43432-1 745-1003)
T1 chain: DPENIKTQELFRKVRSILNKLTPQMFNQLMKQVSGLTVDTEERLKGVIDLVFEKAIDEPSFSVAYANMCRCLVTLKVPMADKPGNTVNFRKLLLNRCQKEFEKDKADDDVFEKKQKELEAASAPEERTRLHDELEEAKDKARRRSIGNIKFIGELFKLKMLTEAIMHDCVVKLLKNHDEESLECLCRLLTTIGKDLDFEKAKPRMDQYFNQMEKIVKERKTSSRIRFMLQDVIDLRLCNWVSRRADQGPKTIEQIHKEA

T2: DAP5 HEAT-1 (61–323) (human, UniProt P78344-2 61-323)
T2 construct: also called HEAT-1 domain of DAP5; DAP5 HEAT-1 domain; source: E. coli (BL21-CodonPlus(DE3) RIPL or BL21-Rosetta(DE3)), purified
T2 sequence (looked up): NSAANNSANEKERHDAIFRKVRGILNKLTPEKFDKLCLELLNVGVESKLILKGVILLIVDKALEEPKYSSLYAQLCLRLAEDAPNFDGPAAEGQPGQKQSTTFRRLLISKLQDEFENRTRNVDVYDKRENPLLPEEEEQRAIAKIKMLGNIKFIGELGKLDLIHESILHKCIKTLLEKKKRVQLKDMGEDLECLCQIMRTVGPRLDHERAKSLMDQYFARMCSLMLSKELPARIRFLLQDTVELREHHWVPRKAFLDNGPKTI

B1: FITC-labelled peptide MNV VPg 104–124 (peptide)
peptide: {FITC-Ahx}-VGPSWADDDRQVDYGEKINFE-OH
SMILES: CC[C@H](C)[C@H](NC(=O)[C@H](CCCCN)NC(=O)[C@H](CCC(=O)O)NC(=O)CNC(=O)[C@H](Cc1ccc(O)cc1)NC(=O)[C@H](CC(=O)O)NC(=O)[C@@H](NC(=O)[C@H](CCC(N)=O)NC(=O)[C@H](CCCNC(=N)N)NC(=O)[C@H](CC(=O)O)NC(=O)[C@H](CC(=O)O)NC(=O)[C@H](CC(=O)O)NC(=O)[C@H](C)NC(=O)[C@H](Cc1c[nH]c2ccccc12)NC(=O)[C@H](CO)NC(=O)[C@@H]1CCCN1C(=O)CNC(=O)[C@@H](NC(=O)CCCCCNC(=S)Nc1ccc2c(c1)C(=O)OC21c2ccc(O)cc2Oc2cc(O)ccc21)C(C)C)C(C)C)C(=O)N[C@@H](CC(N)=O)C(=O)N[C@@H](Cc1ccccc1)C(=O)N[C@@H](CCC(=O)O)C(=O)O
notes: source: synthetic peptide, bought: ChinaPeptides Co., Ltd
B2: FITC-labelled peptide MNV VPg 108–124 (peptide)
peptide: {FITC-Ahx}-WADDDRQVDYGEKINFE
notes: as for B1

Columns and labels:
[1] = target: T1, MBP tagged eIF4GII HEAT-1 (745–1003); experiment: FP
[2] = target: T3, untagged eIF4GII HEAT-1 (745–1003) (human, UniProt O43432-1 745-1003); experiment: fluorescence polarisation; conditions: both partners purified
T3 construct: also called unlabelled eIF4GII (745–1003); eIF4GII (753–1003); source: E. coli (BL21-CodonPlus(DE3) RIPL or BL21-Rosetta(DE3)), purified

DAP5 HEAT-1 (61–323) = target: T2, DAP5 HEAT-1 (61–323); experiment: fluorescence polarisation; conditions: both partners purified

Binder	Kd [1] [µM]	Kd [2] [µM]	Kd (DAP5 HEAT-1 (61–323)) [µM]
B1	2.9	2.8	20
B2	8.4	10.6	–
